Results of unrelated studies side by side (data: NIAID ChemDB).

Common to all: cytotoxicity tests; read-out: CC50

Neighbouring rows are from separate reports. CCn is the concentration with n% toxicity to the cells. An empty or dashed field is not shown.

structure,method,cell line,result
CCCN(CCC)c1ccc2c(c1)Cc1cc(NC(N)=S)ccc1-2,MTS,Ava5-EG(delta4AB)SEAP,>1 µM
CC(=O)c1cccc(-c2ccc(C(=O)N(Cc3cccc(OCCCCCC(=O)OC(=O)O)c3)C(C)C)cc2)c1,,BJ,>20 µM
COC(=O)C1=C(CN2CC(F)(F)[C@@H]3[C@H]2CON3C[C@@H](OC)C(C)(C)C(=O)O)NC(c2ncoc2C)=N[C@H]1c1ccc(F)cc1Cl,WST / absorbance,HepG2.2.15,>100 µM
CCCCN(CCCC)c1ccc2c(c1)Cc1cc(NC(N)=S)ccc1-2,MTS,Ava5-EG(delta4AB)SEAP,>1 µM
CCOC(=O)C1=C(CN2CC(F)(F)[C@@H]3[C@H]2CON3CC[C@@](C)(O)C(=O)O)NC(c2nccs2)=N[C@H]1c1ccc(F)c(F)c1C,WST / absorbance,HepG2.2.15,>100 µM
NC(=S)Nc1cccc(OCCCCCOc2ccc3ncccc3c2)c1,MTS,Ava5-EG(delta4AB)SEAP,>1 µM
COc1ccc(CCNC(=O)CCCCC(C)=O)cc1OC,,BJ,<7.5 µM
O=C(NCCc1ccc2c(n1)NCCC2)Nc1ccc(F)cc1,,PBMC,5.7 µM
CCOC(=O)c1c(-c2ccc(-c3ccc(CN)cc3)cc2)c2cccnc2n(O)c1=O,,HeLa,<100 µM
CN(C)C(=S)Nc1cccc(OCCCCCOc2ccc(-c3ccccc3)cc2)c1,MTS,Ava5-EG(delta4AB)SEAP,>1 µM
CNC(=O)c1c(N)c2cccnc2n(O)c1=O,,HeLa,<100 µM
COC(=O)C1=C(CN2CC(F)(F)[C@@H]3[C@H]2CON3C[C@H](OC)C(C)(C)C(=O)O)NC(c2nccs2)=N[C@H]1c1ccc(F)cc1Cl,WST / absorbance,HepG2.2.15,>100 µM
CC(C)N(Cc1cccc(OCCCCCC(=O)OC(=O)O)c1)C(=O)c1ccc(-c2cccc(OC(F)(F)F)c2)cc1,,RAJI,>20 µM
CCOC(=O)c1c(O)c2cc(-c3cccc(O)c3)cnc2n(O)c1=O,,HeLa,0.05 µM
COc1cc(OC)c(NC(=O)NCC2CCc3ccccc3N2)cc1Cl,,PBMC,50 µM
CC(C)N(Cc1cccc(OCCCCCC(=O)OC(=O)O)c1)C(=O)c1ccc(-c2ccc3ccccc3c2)cc1,,HEK 293,>20 µM
O=C(NCCc1ccc2c(n1)NCCC2)Oc1cccc(C(F)(F)F)c1,,PBMC,2.7 µM
COc1ccc(OCCCCCOc2cccc(NC(N)=S)c2)c(Cl)c1,MTS,Ava5-EG(delta4AB)SEAP,>1 µM
O=c1cc(N2CCC(N3CCOCC3)CC2)c2cccnc2n1O,,HeLa,<100 µM
CCOC(=O)C1=C(CN2CC(F)(F)[C@@H]3[C@H]2CON3[C@H](C)[C@H](O)C(C)(C)C(=O)O)NC(c2nccs2)=N[C@H]1c1cccc(F)c1C,WST / absorbance,HepG2.2.15,8.1 µM
COc1ccc(S(=O)(=O)NCCc2ccc3c(n2)NCCC3)c(OC)c1,,PBMC,50 µM
NC(=S)Nc1cccc(OCCCCCOc2cccc(Oc3ccccc3)c2)c1,MTS,Ava5-EG(delta4AB)SEAP,>1 µM

Repeating the final 2 entries:

structure	method	cell line	result
COc1ccc(S(=O)(=O)NCCc2ccc3c(n2)NCCC3)c(OC)c1		PBMC	50 µM
NC(=S)Nc1cccc(OCCCCCOc2cccc(Oc3ccccc3)c2)c1	MTS	Ava5-EG(delta4AB)SEAP	>1 µM